Measured values from several laboratories, pooled; numbers as filed in NIAID ChemDB.

All rows: growth or infection tests; species: Coxsackie virus; read-out: EC50

ECn is the concentration giving n% inhibition of infection, replication or growth. Rows are shuffled and stem from different studies.

CC(=O)OCCOCN1C=CC(=O)NS1(=O)=O ; cells: HeLa ; strain or isolate: TYPE B4 ; result: >400 µg/mL
OC[C@H]1CC(n2cnc3c(NC4CC4)ncnc32)C[C@@H]1CO ; cells: VERO ; strain or isolate: B4 ; result: >100 µg/mL
CC1=CC(=O)N(c2ccccc2)S(=O)(=O)N1COCCO ; cells: VERO ; strain or isolate: TYPE B4 ; result: >400 µg/mL
Cc1ccn2c(C3OCCO3)cnc2c1 ; cells: VERO ; strain or isolate: TYPE B4 ; result: >1000 µM
C=CC(CO)(CO)CCn1cnc2c(N)ncnc21 ; strain or isolate: TYPE B3 ; result: >100 µg/mL
Cc1ccn2c(C3SCCS3)cnc2c1 ; cells: HeLa ; strain or isolate: TYPE B4 ; result: >1000 µM
OCCCCn1cc(Cn2ncc3c(SCc4ccccc4)ncnc32)nn1 ; cells: VERO ; strain or isolate: B4 ; result: >400 µg/mL
N#CC1=CN(COCCO)S(=O)(=O)N=C1N ; cells: HeLa ; strain or isolate: TYPE B4 ; result: >400 µg/mL
O=c1[nH]c(=O)n(C2C[C@H](CO)[C@@H](CO)C2)cc1I ; cells: VERO ; strain or isolate: B4 ; result: >100 µg/mL
OCCCCn1nncc1Cn1ncc2c(SCc3ccccc3)ncnc21 ; cells: VERO ; strain or isolate: B4 ; result: >400 µg/mL
Cc1ccn2c(C(SCCc3ccccc3)SCCc3ccccc3)cnc2c1 ; cells: HeLa ; strain or isolate: TYPE B4 ; result: >1000 µM
CC(=O)OCCOCN1C(N)=CC(N)=NS1(=O)=O ; cells: HeLa ; strain or isolate: TYPE B4 ; result: >400 µg/mL
O=c1ccn([C@@H]2O[C@H](/C=C/C=C(Br)Br)[C@@H](O)[C@H]2O)c(=O)[nH]1 ; cells: HeLa ; strain or isolate: B4 ; result: ≥200 µM
Cc1cccn2c(C3OCCS3)cnc12 ; cells: VERO ; strain or isolate: TYPE B4 ; result: >1000 µM
COc1ncnc2c1cnn2Cc1cn(CCCCO)nn1 ; cells: VERO ; strain or isolate: B4 ; result: >400 µg/mL
CCOC(=O)C1=CN(COCCO)S(=O)(=O)NC1=O ; cells: VERO ; strain or isolate: TYPE B4 ; result: >400 µg/mL
CC(C)Nc1ncnc2c1ncn2C1C[C@H](CO)[C@@H](CO)C1 ; cells: VERO ; strain or isolate: B4 ; result: >100 µg/mL

2 of the rows above, restated:

| smiles | cells | strain or isolate | result |
|---|---|---|---|
| OCCCCn1nncc1Cn1ncc2c(SCc3ccccc3)ncnc21 | VERO | B4 | >400 µg/mL |
| Cc1cccn2c(C3OCCS3)cnc12 | VERO | TYPE B4 | >1000 µM |